Measured values from several laboratories, pooled; numbers as filed in NIAID ChemDB.

Common to all: growth or infection tests; organism: Human cytomegalovirus; endpoint: EC50

Neighbouring rows are from separate reports. Blank or dashed fields: not listed here. ECn is the concentration giving n% inhibition of infection, replication or growth.

{"structure": "Nc1nc(-c2ccc(NC(=O)CN(CC3CCCCC3)C(=O)COc3ccccn3)cc2)cs1", "cells": "HS68", "strain": "AD169", "read by": "plaque count / crystal violet", "value": "20 µM"}
{"structure": "Nc1nc2c(ncn2COC(CO)CO)c(=O)[nH]1", "cells": "MRC-5", "strain": "P8 ganciclovir-sensitive", "read by": "plaque count", "value": "2.5 µg/mL"}
{"structure": "Cc1nc(N2CCCC2C)nc(-n2ccnc2)c1[N+](=O)[O-]", "value": "0.35 µM"}
{"structure": "COc1cccc(N2CCN(C3=Nc4c(F)cccc4[C@H](CC(=O)O)N3c3cc(C(F)(F)F)ccc3OC)CC2)c1", "strain": "759rD100", "read by": "plaque count", "value": "0.0024 µM"}
{"structure": "Cc1nc(N[C@@H]2c3ccccc3C[C@@H]2O)nc(-n2ccnc2)c1[N+](=O)[O-]", "value": "0.175 µM"}
{"structure": "CC(C)(C)OC(=O)N(CCC(=O)Nc1ccc(-c2csc(N)n2)cc1)C1CCc2ccccc21", "cells": "HS68", "strain": "AD169", "read by": "ELISA", "value": "7.5 µM"}
{"structure": "Nc1ccn(C(CF)CCCO)c(=O)n1", "cells": "HEL", "strain": "AD169", "read by": "cytopathic effect", "value": ">50 µg/mL"}
{"structure": "CC[C@]1(Br)C(=O)NC(=O)N([C@H]2C[C@H](O)[C@@H](CO)O2)[C@@H]1OC", "cells": "HFF", "strain": "AD169", "read by": "cytopathic effect", "value": ">50 µM"}
{"structure": "COc1ccc(Cn2cc(C(N)=S)c3c(N)ncnc32)cc1", "cells": "HFF", "strain": "TOWNE", "read by": "plaque count", "value": "0.4 µM"}
{"structure": "Cc1nc(N2CCCC[C@@H]2C)nc(-n2ccnc2)c1[N+](=O)[O-]", "value": "0.15 µM"}
{"structure": "Cc1ccn2c(CSCCc3ccccc3)c(-c3cccs3)nc2c1", "cells": "HEL", "strain": "AD169", "read by": "cytopathic effect", "value": "1.1 µg/mL"}
{"structure": "Cc1nc(NC2CCc3cc(F)c(F)cc32)nc(-n2ccnc2C)c1[N+](=O)[O-]", "value": "0.15 µM"}
{"structure": "Cc1ccn2c(CSCc3ccccc3)c(C34CC5CC(CC(C5)C3)C4)nc2c1", "cells": "HEL", "strain": "AD169", "read by": "cytopathic effect", "value": ">0.5 µg/mL"}
{"structure": "CC[C@]1(Cl)C(=O)NC(=O)N([C@H]2C[C@H](O)[C@@H](CO)O2)[C@@H]1OC", "cells": "HFF", "strain": "AD169", "read by": "cytopathic effect", "value": ">50 µM"}
{"structure": "CCOP(=O)(O)CCC(CO)OCn1cnc2c(=O)[nH]c(N)nc21", "cells": "MRC-5", "strain": "CH ganciclovir-susceptible", "read by": "plaque count", "value": "47 µg/mL"}
{"structure": "OC[C@H]1O[C@@H](n2c(Br)nc3cc(Cl)c(Cl)cc32)[C@H](O)[C@@H]1O", "strain": "TOWNE", "read by": "virus yield", "value": "<0.18 µM"}
{"structure": "Cn1cc(C(=O)NCc2ccc(Cl)cc2)c(=O)c2cc(CN3CCOCC3)ccc21", "cells": "HFF", "strain": "EC", "read by": "plaque count", "value": "4.7 µM"}
{"structure": "Nc1ncnc2c1ncn2C(CF)CCCO", "cells": "HEL", "strain": "AD169", "read by": "cytopathic effect", "value": ">50 µg/mL"}
{"structure": "CCCCCCCCCCCCCCCCOCCCOP(=O)(O)CO[C@H](CO)Cn1ccc(N)nc1=O", "cells": "MRC-5", "strain": "C9208/5-4-2", "read by": "plaque count", "value": "0.00085 µM"}
{"structure": "Nc1nc2c(ncn2/C=C2/CC2(CO)CO)c(=O)[nH]1", "cells": "HFF", "strain": "AD169", "read by": "plaque count", "value": "1.3 µM"}
{"structure": "Nc1ccn(C[C@@H](CO)OCP(=O)(O)O)c(=O)n1", "cells": "MRC-5", "strain": "D16 (ganciclovir-resistant)", "read by": "plaque count", "value": "13 µg/mL"}
{"structure": "CCc1nccn1-c1nc(N(C)COC)nc(C)c1[N+](=O)[O-]", "value": "0.8 µM"}
{"structure": "Cc1ccn2c(CSCc3ccccc3)c(-c3cccnc3)nc2c1", "cells": "HEL", "strain": "DAVIS", "read by": "cytopathic effect", "value": "50 µg/mL"}
{"structure": "Cc1cn(C(CF)CCCO)c(=O)[nH]c1=O", "cells": "HEL", "strain": "DAVIS", "read by": "cytopathic effect", "value": ">50 µg/mL"}
{"structure": "CCCCCCCCCCCCCCCCCCOCCOP1(=O)CO[C@@H](Cn2ccc(N)nc2=O)CO1", "cells": "MRC-5", "strain": "C8805/37-1-1 (drug-resistant mutant)", "read by": "plaque count", "value": "0.001 µM"}
{"structure": "Cc1ccn2c(CSCc3ccccc3)c(C(F)(F)F)nc2c1", "cells": "HEL", "strain": "AD169", "read by": "cytopathic effect", "value": "0.95 µg/mL"}
{"structure": "Cc1nc(N2CCC[C@H](C)C2)nc(-n2ccnc2)c1[N+](=O)[O-]", "value": "0.08 µM"}
{"structure": "CCCCCCCCCCCCCCCCCCOCCOP(=O)(O)CO[C@H](CO)Cn1ccc(N)nc1=O", "cells": "MRC-5", "strain": "Coffman", "read by": "plaque count", "value": "0.001 µM"}
{"structure": "O=C(NCc1ccc(Cl)cc1)c1cn2c3c(cc(CN4CCOCC4)cc3c1=O)OC(c1cccnc1)C2", "cells": "HFF", "strain": "Coffman", "read by": "plaque count", "value": "5.2 µM"}
{"structure": "Cc1nc(N2CCCCC2C)nc(-n2ccnc2)c1[N+](=O)[O-]", "value": "0.238 µM"}
{"structure": "Cc1ccn2c(CSCc3ccccc3)cnc2c1", "cells": "HEL", "strain": "DAVIS", "read by": "cytopathic effect", "value": "3.5 µg/mL"}
{"structure": "Cc1nc(N2CCOC[C@@H]2C)nc(-n2ccnc2C)c1[N+](=O)[O-]", "value": "0.38 µM"}
{"structure": "Nc1nc2c(ncn2COC(CO)CO)c(=O)[nH]1", "cells": "MRC-5", "strain": "TOWNE", "read by": "ELISA", "value": "20 µM"}
{"structure": "Nc1nc(-c2ccc(NC(=O)CCN(Cc3cccc(F)c3)C(=O)c3ccccc3)cc2)cs1", "cells": "HS68", "strain": "AD169", "read by": "ELISA", "value": "5.8 µM"}
{"structure": "Cc1nc(N(C)Cc2ccccc2)nc(-n2ccnc2C)c1[N+](=O)[O-]", "value": "0.06 µM"}

A second listing of 3 rows from above:

structure | cells | strain | read by | value
Cc1nc(N2CCCC[C@@H]2C)nc(-n2ccnc2)c1[N+](=O)[O-] | - | - | - | 0.15 µM
Cc1nc(N2CCOC[C@@H]2C)nc(-n2ccnc2C)c1[N+](=O)[O-] | - | - | - | 0.38 µM
Nc1ccn(C(CF)CCCO)c(=O)n1 | HEL | AD169 | cytopathic effect | >50 µg/mL